From article PMC7024169, “Synthesis and Antimalarial Activity of 1,4-Disubstituted Piperidine Derivatives” (Molecules, 2020)

Key:
[1] = test system: Plasmodium falciparum 3D7 Strain; assay: Antiplasmodial SYBR Green I assay, chloroquine-sensitive 3D7 strain; type: cell-based
[2] = test system: Plasmodium falciparum W2 Strain; assay: Antiplasmodial SYBR Green I assay, chloroquine-resistant W2 strain; type: cell-based

Which “activity against 3D7 strain, in words” value [1] does the source give for “N-(1-(2-Chlorobenzylpiperidin-4-yl)-2-(2-chlorophenoxy)-N-phenylacetamide” here?
The value was “good activity”.

And the “activity against W2 strain, in words” value [2]?
Its value is “good activity”.
